Source: ChEMBL document CHEMBL3045960 (Pest Manag Sci, 2011)

How the values were obtained:
[1] = system: Fusarium graminearum; test: Fungicidal activity against Fusarium graminearum E198Q harboring mutation at codon 198 of beta2 tubulin assessed as mycelial growth inhibition after 3 days
[2] = system: Fusarium graminearum; test: Fungicidal activity against Fusarium graminearum ZJ80 harboring mutation at codon 198 of beta2 tubulin assessed as mycelial growth inhibition after 3 days
[3] = system: Fusarium graminearum; test: Fungicidal activity against Fusarium graminearum E198K harboring mutation at codon 198 of beta2 tubulin assessed as mycelial growth inhibition after 3 days
[4] = system: Fusarium graminearum; test: Fungicidal activity against Fusarium graminearum F200Y harboring mutation at codon 200 of beta2 tubulin assessed as mycelial growth inhibition after 3 days
[5] = system: Fusarium graminearum; test: Fungicidal activity against Fusarium graminearum J2 harboring mutation at codon 198 of beta2 tubulin assessed as mycelial growth inhibition after 3 days
[6] = system: Fusarium graminearum; test: Fungicidal activity against Fusarium graminearum NT7 harboring mutation at codon 200 of beta2 tubulin assessed as mycelial growth inhibition after 3 days
[7] = system: Fusarium graminearum; test: Fungicidal activity against Fusarium graminearum F167Y harboring mutation at codon 167 of beta2 tubulin assessed as mycelial growth inhibition after 3 days
[8] = system: Fusarium graminearum; test: Fungicidal activity against Fusarium graminearum 2052 harboring mutation at codon 167 of beta2 tubulin assessed as mycelial growth inhibition after 3 days
[9] = system: Fusarium graminearum; test: Fungicidal activity against Fusarium graminearum Y50C harboring mutation at codon 50 of beta2 tubulin assessed as mycelial growth inhibition after 3 days
[10] = system: Fusarium graminearum; test: Fungicidal activity against Fusarium graminearum 2021 assessed as mycelial growth inhibition after 3 days
[11] = system: Fusarium graminearum; test: Fungicidal activity against Fusarium graminearum DN83 harboring beta2 tubulin deletion mutation assessed as mycelial growth inhibition after 3 days

Structure (SMILES)	EC50 [1]	EC50 [2]	EC50 [3]	EC50 [4]	EC50 [5]	EC50 [6]	EC50 [7]	EC50 [8]	EC50 [9]	EC50 [10]	EC50 [11]
COC(=O)Nc1nc2ccccc2[nH]1	3.33 µg/mL (≈ 17.4 µM)	3.52 µg/mL (≈ 18.4 µM)	3.52 µg/mL (≈ 18.4 µM)	10.9 µg/mL (≈ 57.2 µM)	3.59 µg/mL (≈ 18.8 µM)	10.9 µg/mL (≈ 57.1 µM)	10.8 µg/mL (≈ 56.7 µM)	12.3 µg/mL (≈ 64.4 µM)	3.24 µg/mL (≈ 16.9 µM)	0.47 µg/mL (≈ 2.46 µM)	0.1 µg/mL (≈ 0.523 µM)
CCCCNC(=O)n1c(NC(=O)OC)nc2ccccc21 [BENOMYL]	3.93 µg/mL (≈ 13.5 µM)	3.19 µg/mL (≈ 11 µM)	4.46 µg/mL (≈ 15.4 µM)	6.05 µg/mL (≈ 20.8 µM)	5.81 µg/mL (≈ 20 µM)	8.83 µg/mL (≈ 30.4 µM)	15 µg/mL (≈ 51.6 µM)	17.7 µg/mL (≈ 60.9 µM)	3.02 µg/mL (≈ 10.4 µM)	–	–
c1ccc2[nH]c(-c3cscn3)nc2c1 [THIABENDAZOLE]	4.52 µg/mL (≈ 22.5 µM)	4.52 µg/mL (≈ 22.5 µM)	3.56 µg/mL (≈ 17.7 µM)	5.85 µg/mL (≈ 29.1 µM)	3.86 µg/mL (≈ 19.2 µM)	6.76 µg/mL (≈ 33.6 µM)	14.6 µg/mL (≈ 72.7 µM)	10.8 µg/mL (≈ 53.4 µM)	3.74 µg/mL (≈ 18.6 µM)	–	–
COC(=O)NC(=S)Nc1ccccc1NC(=S)NC(=O)OC [THIOPHANATE METHYL]	41.3 µg/mL (≈ 121 µM)	42.9 µg/mL (≈ 125 µM)	33.5 µg/mL (≈ 97.8 µM)	–	38.2 µg/mL (≈ 111 µM)	–	–	–	–	–	–

In brackets after ≈: the same amount, converted by molar mass.
